Pooled drug test results. Numbers come from NIAID ChemDB, via PubChem.

All rows: whole-cell or culture tests; agent: Varicella zoster virus; read by: plaque count; measure: EC50

ECn is the concentration giving n% inhibition of infection, replication or growth. An empty or dashed field is not shown. Lines come from different laboratories, so protocols vary.

SMILES,cell line,strain or isolate,value
CN1c2ccc([N+](=O)[O-])cc2C(C)(C)C12C=Cc1ccccc1O2,HEL,07/1 (TK-),>9.9 µM
CC1(C)[C@H](CCO)C[C@@H]1n1cnc2c(=O)[nH]cnc21,-,YS/R (TK-),>50 µg/mL
CCCCCCCCCCc1cc2cn([C@H]3C[C@H](O)[C@@H](CO)O3)c(=O)nc2n1C,HEL,OKA,6 µM
Nc1nc(OCC2CC2)c2ncn(/C=C3/C[C@@H]3CO)c2n1,HFF,-,8.4 µM
CCCCCCCCc1cc2cn([C@H]3C[C@H](O)[C@@H](CO)O3)c(=O)nc2[nH]1,HEL,07/1 (TK-),>20 µM
C=CCOc1nc(N)nc2c1ncn2/C=C1/C[C@@H]1CO,HFF,-,2.3 µM
Nc1cn(C=C2C[C@H]2CO)c(=O)[nH]c1=O,HFF,-,>518 µM
CCOP(=O)(O)COCCn1cnc2c(=O)[nH]c(N)nc21,HEL,YS/R (TK-),0.004 µg/mL
Nc1nc(N)c2ncn([C@H]3CCC[C@H]3CO)c2n1,HEL,07/1 (TK-),>50 µg/mL
O=C(O)CP(=O)(O)O,-,Kawaguchi acyclovir-resistant mutant A6,1.56 µg/mL
Cc1cn([C@H]2C[C@H](O)[C@@H](CO)O2)c(=S)[nH]c1=O,MRC-5,HOSEN,27.4 µM
CC(C)Nc1nc(N)nc2c1ncn2/C=C1/C[C@@H]1CO,HFF,-,>365 µM
Cn1cc(C(=O)NCc2ccc(Cl)cc2)c(=O)c2cc(CN3CCOCC3)ccc21,-,20 isolates,0.34 µM
Nc1nc2c(ncn2CC(CO)CCO)c(=O)[nH]1,HL,-,4.2 µM
CO[C@@H]1[C@H](O)[C@@H](CO)O[C@H]1c1ccccc1,HEL,07/1,>50 µg/mL
O=C(O)CP(=O)(O)O,HEL,13 isolates,64.1 µM
OC[C@H]1O[C@@H](c2ccccc2)[C@H](O)[C@@H]1O,HEL,07/1,>50 µg/mL
COc1nc(N)nc2c1ncn2OCCOCP(=O)(O)O,MRC-5,ELLEN,<0.09 µg/mL
Nc1nc(=S)n([C@@H]2O[C@H](CO)[C@@H](O)[C@@H]2O)cc1F,MRC-5,HOSEN,186 µM
Nc1nc(NCC2CC2)c2ncn(/C=C3/C[C@@H]3CO)c2n1,HFF,-,10.8 µM
Nc1nc(N)c2ncn(CC(CO)OCP(=O)(O)O)c2n1,HEL,YS/R (TK-),1 µg/mL
CCCCCCCCc1ccc(-c2cc3cn([C@H]4C[C@H](O)[C@@H](CO)O4)c(=O)nc3o2)cc1,HEL,YS,0.03 µM
Nc1nc2ncn(CCOCP(=O)(O)O)c2c(=O)[nH]1,HEL,OKA (TK+),0.02 µg/mL
O=c1[nH]c(=O)n([C@H]2C[C@H](O)[C@@H](CO)O2)cc1/C=C/Br,HEL,YS (TK+),0.0045 µM
C=CCNc1nc(N)nc2c1ncn2/C=C1/C[C@@H]1CO,HFF,-,>368 µM
O=c1[nH]c(=O)n([C@H]2C[C@H](O)[C@@H](CO)O2)cc1-c1ccc(Br)s1,HEL,07/1 (TK-),>103 µM
Nc1nc2c(ncn2OCCOCP(=O)(O)O)c(=O)[nH]1,MRC-5,ELLEN,0.2 µg/mL
O=c1[nH]cnc2c1ncn2[C@@H]1O[C@H](CO)[C@H]1CO,HEL,(TK-)/YS/R,124.3 µg/mL
Nc1nc(=S)n([C@H]2C[C@H](O)[C@@H](CO)O2)cc1Cl,MRC-5,HOSEN,6.51 µM
O=C(NCc1ccc(Cl)cc1)c1c[nH]c2c(F)cccc2c1=O,-,CAR,1.5 µM
O=c1[nH]c(=O)n([C@H]2C[C@H](O)[C@@H](CO)O2)cc1/C=C/Br,HEL,OKA (TK+),0.0048 µM
CCCCCCCCCCCCc1cc2cn([C@H]3C[C@H](O)[C@@H](CO)O3)c(=O)nc2o1,HEL,OKA,0.8 µM
Nc1nc2c(ncn2[C@H]2CCC[C@H]2CO)c(=O)[nH]1,HEL,YS (TK+),>50 µg/mL
Nc1cn(/C=C2/C[C@H]2CO)c(=O)[nH]c1=O,HFF,-,3.6 µM
Nc1ncnc2c1ncn2C[C@@H](CO)OCP(=O)(O)O,HEL,07/1 (TK-),0.04 µM
CC1(C)[C@H](CCO)C[C@@H]1n1cnc2c(N)ncnc21,-,07/1 (TK-),>20 µg/mL
Cn1cc(C(=O)NCc2ccc(Cl)cc2)c(=O)c2cc(CN3CCOCC3)ccc21,HFF,Human zoster isolate,0.5 µM
Nc1nc2c(ncn2CCC(CO)CO)c(=O)[nH]1,HEL,07/1 (TK-),8 µg/mL
O=c1[nH]c(=O)n([C@H]2C[C@H](O)[C@@H](CO)O2)cc1/C=C/Cl,HEL,OKA (TK+),0.024 µM
COC(=O)C(C)NP(=O)(OC[C@@H]1C/C1=C/n1cc(C)c(=O)[nH]c1=O)Oc1ccccc1,HFF,-,69.3 µM
Nc1nc2c(ncn2[C@@H]2O[C@H](CO)[C@H]2CO)c(=O)[nH]1,HEL,(TK-)/YS/R,1.8 µg/mL
O=c1[nH]c(=O)n([C@H]2C[C@H](O)[C@@H](CO)O2)cc1/C=C\Cl,HEL,YS/R (TK-),>40 µg/mL
Nc1nc2c(ncn2/C=C2\CC2(CO)CO)c(=O)[nH]1,HFF,ELLEN,>380 µM
Nc1nc2c(ncn2C[C@]2(CO)C[C@H]2CO)c(=O)[nH]1,HEL,OKA (TK+),0.05 µg/mL
CN1c2ccc(Cl)cc2C(C)(C)C12C=Cc1cc([N+](=O)[O-])ccc1O2,HEL,OKA (TK+),1.9 µM
Nc1ncnc2c1ncn2OCC(CO)OCP(=O)(O)O,MRC-5,ELLEN,210 µg/mL
CCCCCCCCc1cc2cn([C@H]3C[C@H](O)[C@@H](CO)O3)c(=O)nc2o1,HEL,YS,0.02 µM
Nc1nc(=O)n([C@H]2C[C@H](O)[C@@H](CO)O2)cc1/C=C\Cl,HEL,YS/R (TK-),>40 µg/mL
Nc1nc2c(ncn2CCC(CO)CO)c(=O)[nH]1,HEL,OKA (TK+),2.9 µM
Nc1nc2c(ncn2/C=C2/C[C@@H]2CO)c(=O)[nH]1,HFF,-,55 µM
O=c1[nH]c(=O)n([C@H]2C[C@H](O)[C@@H](CO)O2)cc1-c1cc(-c2ccccc2)no1,HEL,OKA,38 µg/mL
Nc1nc(=O)n([C@H]2C[C@H](O)[C@@H](CO)O2)cc1/C=C/Cl,HEL,07/1 (TK-),>145 µM
O=c1[nH]c(=S)n([C@H]2C[C@H](O)[C@@H](CO)O2)cc1Cl,MRC-5,HOSEN,>360 µM
O=c1[nH]c(=O)n(C[C@]2(CO)C[C@H]2CO)cc1/C=C/Br,MRC-5,6 isolates,0.21 µg/mL
Nc1nc2c(ncn2C[C@]2(CO)C[C@H]2CO)c(=O)[nH]1,MRC-5,Kawaguchi,0.26 µg/mL
Nc1nc2c(ncn2CCOCP(=O)(O)O)c(=O)[nH]1,HEL,07/1 (TK-),0.001 µg/mL
OC[C@H]1O[C@@H](c2cc(C(O)CI)c(F)cc2F)C[C@@H]1O,HEL,07/1 (TK-),50 µg/mL
CCCCCCc1cc2cn([C@H]3C[C@H](O)[C@@H](CO)O3)c(=O)nc2[nH]1,HEL,07/1 (TK-),>50 µM
O=c1nc2oc(CCCCCCCCCBr)cc2cn1[C@H]1C[C@H](O)[C@@H](CO)O1,HEL,OKA,0.03 µM
COc1nc(N)nc2c1ncn2/C=C1/C[C@@H]1CO,HFF,-,10 µM
Nc1ccn([C@@H]2O[C@H](CO)[C@@H](O)[C@H]2O)c(=S)n1,MRC-5,HOSEN,>386 µM
Nc1nc(N)c2ncn(C[C@H]3CCC[C@H]3CO)c2n1,HEL,YS/R (TK-),>50 µg/mL
CC(=O)OCC(COC(C)=O)OCn1cnc2c(=O)[nH]c(N)nc21,HFF,-,0.6 µg/mL
OC[C@H]1O[C@@H](c2cc(C(O)CBr)c(F)cc2F)C[C@@H]1O,HEL,YS/R (TK-),>20 µg/mL
O=c1[nH]c(=O)n([C@@H]2O[C@H](CO)[C@@H](O)[C@@H]2O)cc1/C=C/Cl,-,Kawaguchi,0.00188 µg/mL
CCCC(=O)OCC(COC(=O)CCC)OCn1cnc2c(=O)[nH]c(N)nc21,HFF,-,1.1 µg/mL
CN1c2ccccc2C(C)(C)C12C=Cc1cc([N+](=O)[O-])ccc1O2,HEL,OKA (TK+),3.6 µM
C#CCNc1nc(N)nc2c1ncn2/C=C1/C[C@@H]1CO,HFF,-,>74 µM
Nc1ncnc2c1ncn2C[C@@H](CO)OCP(=O)(O)O,HEL,YS/R (TK-),0.02 µg/mL
Nc1nc(N)c2ncn(OCCOCP(=O)(O)O)c2n1,MRC-5,ELLEN,3.9 µg/mL
CCCCCCCCCCc1cc2cn([C@H]3C[C@H](O)[C@@H](CO)O3)c(=O)nc2n1CCC,HEL,OKA,>5 µM
Nc1nc2c(ncn2COCCO)c(=O)[nH]1,-,YS/R (TK-),2.5 µg/mL

A second listing of 11 rows from above:

SMILES | cell line | strain or isolate | value
CCCCCCc1cc2cn([C@H]3C[C@H](O)[C@@H](CO)O3)c(=O)nc2[nH]1 | HEL | 07/1 (TK-) | >50 µM
Nc1nc(NCC2CC2)c2ncn(/C=C3/C[C@@H]3CO)c2n1 | HFF | - | 10.8 µM
O=c1[nH]cnc2c1ncn2[C@@H]1O[C@H](CO)[C@H]1CO | HEL | (TK-)/YS/R | 124.3 µg/mL
Cn1cc(C(=O)NCc2ccc(Cl)cc2)c(=O)c2cc(CN3CCOCC3)ccc21 | HFF | Human zoster isolate | 0.5 µM
O=c1[nH]c(=O)n([C@H]2C[C@H](O)[C@@H](CO)O2)cc1-c1ccc(Br)s1 | HEL | 07/1 (TK-) | >103 µM
OC[C@H]1O[C@@H](c2cc(C(O)CI)c(F)cc2F)C[C@@H]1O | HEL | 07/1 (TK-) | 50 µg/mL
Nc1nc2c(ncn2/C=C2/C[C@@H]2CO)c(=O)[nH]1 | HFF | - | 55 µM
COc1nc(N)nc2c1ncn2/C=C1/C[C@@H]1CO | HFF | - | 10 µM
O=C(NCc1ccc(Cl)cc1)c1c[nH]c2c(F)cccc2c1=O | - | CAR | 1.5 µM
Nc1nc(=O)n([C@H]2C[C@H](O)[C@@H](CO)O2)cc1/C=C\Cl | HEL | YS/R (TK-) | >40 µg/mL
CCOP(=O)(O)COCCn1cnc2c(=O)[nH]c(N)nc21 | HEL | YS/R (TK-) | 0.004 µg/mL